Anti-infective test results gathered from many reports (values: NIAID ChemDB through PubChem).

Common to all: toxicity to cultured cells; endpoint: CC50

Blank or dashed fields: not listed here.

compound | cell line | method | conditions | result
COC(=O)C1=C(CN2CC(F)(F)[C@H]3[C@@H]2CCN3CC[C@@](C)(O)C(=O)O)NC(c2nccs2)=N[C@H]1c1ccc(F)c(F)c1F | HepG2.2.15 | WST / absorbance | - | >100 µM
CCn1c(-c2ccccc2)c(C)c(=O)c2cc(N3CCOCC3)ccc21 | HELA-OHIO | MTT | - | >50 µg/mL
CCn1nnc(-c2ccc(OCCC(C)CCN3CCN(c4ccncc4)C3=O)cc2)n1 | RD | - | - | >12.5 µM
CC(C)c1ccc2c(c1)c(=O)cc(-c1cccs1)n2C | HeLa S3 | MTT | - | 16 µg/mL
CN(Cc1ccc2ccccc2n1)Cc1ncccc1CCC#N | C8166 | MTT | - | >10 µM
COCP(=O)(OC[C@@H]1O[C@H](n2cc(C)c(=O)[nH]c2=O)C[C@H]1N=[N+]=[N-])OC[C@H]1O[C@@H](n2cc(C)c(=O)[nH]c2=O)C[C@@H]1N=[N+]=[N-] | CEM-SS | - | - | 31 µM
CCCN(Cc1ccc(OCC(=O)OCC)cc1)C(=O)c1ccc(-c2ccc3c(c2)OCO3)cc1 | HepG2 | - | - | >20 µM
OC[C@@H]1CC[C@H](COc2ncnc3nc[nH]c23)O1 | PC-3 | - | - | >250 µM
COC(=O)C1=C(CN2CC(F)(F)[C@@H]3[C@H]2CON3C[C@H](O)C(C)(C)C(=O)O)NC(c2nccs2)=N[C@H]1c1ccc(F)cc1Cl | HepG2.2.15 | WST / absorbance | - | >100 µM
COC(=O)C(Cc1c[nH]c2ccccc12)NP(=O)(O)OCC1C/C1=C/n1cnc2c(N)ncnc21 | BSC-1 | - | - | >100 µM
CC(CCCOc1ccc(-c2ccc(Cl)cc2)cc1)CN1CCN(c2ccncc2)C1=O | RD | - | - | >25 µM
COC1=CCC(C2C3(CO)C4N(Cc5ccc(OC)cc5)C5C6(CO)C(c7ccc(OC)cc7)C4(CO)C3N(Cc3ccc(OC)cc3)C6C25CO)C=C1 | EPG85-257DB | - | - | 40 µM
O=C1N(CCN(CCOc2ccc(-c3ccc(Cl)cc3)cc2)Cc2ccc(Cl)cc2)CCN1c1ccncc1 | RD | - | - | >25 µM
Cc1cn([C@@H]2C[C@@H](N=[N+]=[N-])[C@H](COP(=O)(OC[C@H]3O[C@@H](n4cc(C)c(=O)[nH]c4=O)C[C@@H]3N=[N+]=[N-])c3ccccc3)O2)c(=O)[nH]c1=O | CEM-SS | - | - | 33 µM
O=C1N(Cc2cccc(COc3ccc(-c4ccc(Cl)cc4)cc3)c2)CCN1c1ccncc1 | RD | - | - | >6.25 µM
CC(CCC(=O)N[C@@H](Cc1ccc(O)cc1)C(=O)O)C1CCC2C3CCC4C[C@H](O)CCC4(C)C3C[C@H](O)C12C | VK2/E6E7 | XTT | - | 181 µg/mL
CC(=O)NC[C@H]1CN(c2ccc(N3CCN(C4=NS(=O)(=O)c5ccccc5N4C)CC3)c(F)c2)C(=O)O1 | Human foreskin fibroblasts | MTT | - | >100 µg/mL
Cc1cc(=O)[nH]c2c1ccc1ncc(C(=O)O)c(C)c12 | KB | - | - | 16 µg/mL
CCC(CCOc1ccc(-c2ccc(Cl)cc2)cc1)CCN1CCN(c2ccncc2)C1=O | RD | - | - | >25 µM
Nc1cc(OCC2O[C@H](COCc3ccccc3)[C@@H](OCc3ccccc3)[C@H]2OCc2ccccc2)nc(N)n1 | CAKI-1 | - | - | 22 µM
CC/C=C/C1=C(O)c2ccccc2C(=O)C1=O | 2C4 fibroblasts | - | - | >50 µg/mL
Cc1cn([C@H]2C[C@H](N=[N+]=[N-])[C@@H](CO)O2)c(=O)[nH]c1=O | CEM-SS | - | - | 142 µM
Cn1cc(C(=O)O)c(=O)c2cc(F)c(N3CC=C(c4ccccc4)CC3)c(C(F)(F)F)c21 | OM-10.1 | - | - | 1.53 µM
CO[C@@H]1[C@H](O)[C@@H](CO)O[C@H]1n1ccc(N)nc1=O | HBIII27 | - | - | >100 µM
NC[C@H]1O[C@H](O[C@H]2[C@H](O)[C@@H](O[C@H]3O[C@H](CO)[C@@H](O)[C@H](N)[C@H]3O)[C@H](N)C[C@@H]2N)[C@H](O)[C@@H](O)[C@@H]1O | J774 macrophages | resazurin / fluorescence | - | 813 µg/mL
O=C(Nc1ccc2c(c1)OCO2)c1cc(-c2cccs2)nc2ccccc12 | BJ | - | - | >20 µM
CCCOc1ccc2c(c1)c(=O)c(C)c(-c1ccccc1)n2CC | HELA-OHIO | MTT | - | >10 µg/mL
OCC12C(c3ccccc3)C3(CO)C4N(Cc5ccccc5)C1C1(CO)C(C5C=CC=CC5)C4(CO)C3N(Cc3ccccc3)C21 | EPG85-257P | - | - | 45.5 µM
CC[C@@H]1/C=C(\C)C[C@H](C)C[C@H](OC)[C@H]2O[C@@](O)(C(=O)C(=O)N3CCCC[C@H]3C(=O)O[C@H](/C(C)=C/[C@H]3CC[C@H](O)[C@H](OC)C3)[C@H](C)[C@@H](O)CC1=O)[C@H](C)C[C@@H]2OC | HEK-297 | - | - | 14 µg/mL
Nc1nc(OC[C@H]2CC[C@@H](CO)O2)c2[nH]cnc2n1 | PC-3 | - | - | >250 µM
CCCNc1ccccc1OCCCCC(=O)OCC | HepG2 | - | - | >20 µM
CCn1c(-c2cccs2)cc(=O)c2cc(C(C)C)ccc21 | HeLa S3 | MTT | - | 18 µg/mL
Cc1cn([C@H]2C[C@H](N=[N+]=[N-])[C@@H](COP(=O)(COc3ccccc3)OC[C@@H]3O[C@H](n4ccc(N)nc4=O)CS3)O2)c(=O)[nH]c1=O | CEM-SS | - | - | 60 µM
CCOC(=O)C1=C(CN2CC(F)(F)[C@@H]3[C@H]2CON3C[C@H](O)C(C)(C)C(=O)O)NC(c2nc(C)cs2)=N[C@H]1c1cccc(F)c1C | HepG2.2.15 | WST / absorbance | - | 80.3 µM
Nc1nc(Cl)cc(OC[C@H]2O[C@H](COCc3ccccc3)[C@@H](OCc3ccccc3)[C@H]2OCc2ccccc2)n1 | L1210 | - | - | >250 µM
CCOC(=O)CCCCCOc1cccc(CN(C(=O)c2ccc(-c3cccc([N+](=O)[O-])c3)cc2)C(C)C)c1 | RAJI | - | - | >20 µM
CC(=O)NC[C@H]1CN(c2ccc(N3CCN(C4=NS(=O)(=O)c5ccccc5N4c4ccccc4)CC3)c(F)c2)C(=O)O1 | Human foreskin fibroblasts | MTT | - | >50 µg/mL
CCOC(=O)C1=C(CN2CC(F)(F)[C@@H]3[C@H]2CON3C[C@H](OC)C(C)(C)C(=O)O)NC(c2nccs2)=N[C@H]1c1cccc(F)c1Cl | HepG2.2.15 | WST / absorbance | - | 100 µM
CC1(C)CCC2=C(O1)C(=O)c1ccccc1C2=O | 2C4 fibroblasts | - | - | 0.01 µg/mL
Nc1ccnc(OC[C@H]2CC[C@@H](COCc3ccccc3)O2)n1 | PC-3 | - | - | ≥250 µM
Cc1c(-c2ccccc2)n(-c2ccc(Cl)cc2)c2ccc(C(C)C)cc2c1=O | HELA-OHIO | MTT | - | >1 µg/mL
CCc1cccnc1CN(C)Cc1nc2nccc(N3CCN(C)CC3)c2[nH]1 | C8166 | MTT | - | >10 µM
N#C/C(=C(\N)N1CC[N+]2(CC1)CC[N+]1(CCN(/C(N)=C(/C#N)[N+](=O)[O-])CC1)CC2)[N+](=O)[O-] | L929 | - | - | >328.1 µg/mL
O=C1N(CCC(CCOc2ccc(-c3ccc(Cl)cc3)cc2)Cc2ccccc2)CCN1c1ccncc1 | RD | - | - | >10 µM
CC(C)N(Cc1cccc(OCCCCCC(=O)OC(=O)O)c1)C(=O)c1ccc(-c2cccc(N(C)C)c2)cc1 | HEK 293 | - | - | >20 µM
C1=NC(CN(Cc2ccccc2)c2ccccc2)=NC1 | HepAD38 | absorbance | 5 d | >30 µM
CCCc1cc2c(o1)C(=O)c1ccccc1C2=O | 2C4 fibroblasts | - | - | 5 µg/mL
Cc1nc(N2CC[N+]3(CC2)CC[N+]2(CCNCC2)CC3)c([N+](=O)[O-])c(N2CC[N+]3(CC2)CC[N+]2(CCNCC2)CC3)n1 | K562 | - | - | >228.7 µg/mL
CCC/C=C/C1=C(O)c2ccccc2C(=O)C1=O | 2C4 fibroblasts | - | - | >50 µg/mL
O=C(CCBr)N1CC[N+]2(CC1)CC[N+]1(CCN(C(=O)CCBr)CC1)CC2 | K562 | - | - | >353.2 µg/mL
Nc1ccn([C@@H]2CS[C@H](CO)O2)c(=O)n1 | OM-10.1 | - | - | >20 µM
CCn1c(-c2ccccc2)c(C)c(=O)c2ccc(C(C)C)cc21 | HeLa S3 | MTT | - | >10 µg/mL
O=C1N(Cc2ccc(COc3ccc(-c4ccc(Cl)cc4)cc3)cc2)CCN1c1ccncc1 | RD | - | - | >1.25 µM
CCN(CC)C(=O)N1CCN(c2ncnc(N3CC[N+]4(CC3)CC[N+]3(CCN(c5ncnc(N6CCN(C(=O)N(CC)CC)CC6)c5[N+](=O)[O-])CC3)CC4)c2[N+](=O)[O-])CC1 | GMK | - | - | >509.2 µg/mL
CN1CCN(c2ccnc3nc(CN(C)Cc4ncccc4CCC#N)[nH]c23)CC1 | C8166 | MTT | - | >10 µM
COc1ccc(-n2c(-c3ccccc3)c(C)c(=O)c3cc(C(C)C)ccc32)cc1 | HeLa S3 | MTT | - | >2.5 µg/mL
COc1cc[n+](-c2cccnc2CN(CCCCN)Cc2nc3nccc(N4CCN(C)CC4)c3[nH]2)cc1 | C8166 | MTT | - | >10 µM
COc1cc(OC[C@H]2CC[C@@H](CO)O2)ncn1 | PC-3 | - | - | ≥250 µM
CN1CCN(c2ccnc3nc(CN(CCCCN)Cc4ncccc4N4CCOCC4)[nH]c23)CC1 | C8166 | MTT | - | >10 µM
CCCc1cc2c(o1)-c1ccccc1C(=O)C2=O | 2C4 fibroblasts | - | - | 0.01 µg/mL
O=C(CCC(=O)N1CCCN(C(=O)CCC(=O)NCCOCCOCCN2C(=O)C=CC2=O)CCCN(C(=O)CCC(=O)NCCOCCOCCN2C(=O)C=CC2=O)CCC1)NCCOCCOCCN1C(=O)C=CC1=O | PM1 (PHA stimulated) | - | - | 2.5 µM
CN(Cc1nc2ccccc2[nH]1)Cc1ncccc1CCCNC(=O)OC(C)(C)C | C8166 | MTT | - | >10 µM
O=C(CCN1C(=O)C=CC1=O)N1CCCN(C(=O)CCN2C(=O)C=CC2=O)CCCN(C(=O)CCN2C(=O)C=CC2=O)CCC1 | PM1 (PHA stimulated) | - | - | 3 µM
COC(=O)C1=C(CN2CC(F)(F)[C@@H]3[C@H]2CON3C[C@@H](F)C(C)(C)C(=O)O)NC(c2nccs2)=N[C@H]1c1ccc(F)c(F)c1Cl | HepG2.2.15 | WST / absorbance | - | 50 µM
CCOC(=O)CCCCCOc1cccc(CN(C(=O)c2ccc(-c3cccc(C(C)=O)c3)cc2)C(C)C)c1 | HEK 293 | - | - | >20 µM
CC1(C(=O)NCCOCCOCCN2C(=O)C=CC2=O)CC(C)(C(=O)NCCOCCOCCN2C(=O)C=CC2=O)CC(C)(C(=O)NCCOCCOCCN2C(=O)C=CC2=O)C1 | PM1 (PHA stimulated) | - | - | 1 µM

Repeating the final 9 entries:

| compound | cell line | method | conditions | result |
|---|---|---|---|---|
| COc1cc(OC[C@H]2CC[C@@H](CO)O2)ncn1 | PC-3 | - | - | ≥250 µM |
| CN1CCN(c2ccnc3nc(CN(CCCCN)Cc4ncccc4N4CCOCC4)[nH]c23)CC1 | C8166 | MTT | - | >10 µM |
| CCCc1cc2c(o1)-c1ccccc1C(=O)C2=O | 2C4 fibroblasts | - | - | 0.01 µg/mL |
| O=C(CCC(=O)N1CCCN(C(=O)CCC(=O)NCCOCCOCCN2C(=O)C=CC2=O)CCCN(C(=O)CCC(=O)NCCOCCOCCN2C(=O)C=CC2=O)CCC1)NCCOCCOCCN1C(=O)C=CC1=O | PM1 (PHA stimulated) | - | - | 2.5 µM |
| CN(Cc1nc2ccccc2[nH]1)Cc1ncccc1CCCNC(=O)OC(C)(C)C | C8166 | MTT | - | >10 µM |
| O=C(CCN1C(=O)C=CC1=O)N1CCCN(C(=O)CCN2C(=O)C=CC2=O)CCCN(C(=O)CCN2C(=O)C=CC2=O)CCC1 | PM1 (PHA stimulated) | - | - | 3 µM |
| COC(=O)C1=C(CN2CC(F)(F)[C@@H]3[C@H]2CON3C[C@@H](F)C(C)(C)C(=O)O)NC(c2nccs2)=N[C@H]1c1ccc(F)c(F)c1Cl | HepG2.2.15 | WST / absorbance | - | 50 µM |
| CCOC(=O)CCCCCOc1cccc(CN(C(=O)c2ccc(-c3cccc(C(C)=O)c3)cc2)C(C)C)c1 | HEK 293 | - | - | >20 µM |
| CC1(C(=O)NCCOCCOCCN2C(=O)C=CC2=O)CC(C)(C(=O)NCCOCCOCCN2C(=O)C=CC2=O)CC(C)(C(=O)NCCOCCOCCN2C(=O)C=CC2=O)C1 | PM1 (PHA stimulated) | - | - | 1 µM |

Neighbouring rows are from separate reports. CCn is the concentration with n% toxicity to the cells.